Experimental findings from patent US7011824B2, “Methods of treating manure” (priority 1998, dated 2006) are described below.

This data set in a line: Effect of aluminum chloride and alum on phosphorus solubility and pH of swine manure slurry (Example 1). The following applies: 0-10 ml of 10% solution per 100 ml slurry; incubated 3 days in the dark at 25° C.; FIG. 2.

Consider `[Cl][Al]([Cl])[Cl]` [aluminum chloride], for which the “soluble phosphorus (soluble reactive phosphorus, SRP)” value is on record as “decreased the amount of soluble phosphorus”.
